Compound potency records, mixed from different reports. Data source: NIAID ChemDB in PubChem.

Common to all: whole-cell or culture tests; organism: Mycobacterium avium; endpoint: MIC

Rows are shuffled and stem from different studies.

smiles	strain or isolate	method	setting	value
O=C(Nc1ccc(F)cc1)c1ccc(Cl)cc1OS(=O)(=O)c1ccccc1	330/88	-	21 d	32 µM
Cc1cccc(C(=O)CC(N/N=C(\N)c2ccccn2)c2ccccn2)c1	485	-	-	16 µg/mL
COc1ccccc1/C=C/C1=NN(C(=N)N)C(c2ccccc2OC)C1	-	resazurin	-	1.78 µM
O=[N+]([O-])c1ccc(Sc2nc3c(Br)cc(Br)cc3[nH]2)c([N+](=O)[O-])c1	MY330/88	-	-	500 µM
COc1ccc2oc(=S)n(-c3ccc(C)cc3)c(=S)c2c1	MY330/88	-	14 d	16 µM
N/C(=N\NC(CC(=O)c1ccc(-c2ccccc2)cc1)c1cccnc1)c1ccccn1	485	-	-	16 µg/mL
CCOC(=O)C(=O)N=Nc1c(S)n(CC)c2ccccc12	CNCTC D5/93	-	-	>1000 µM
Cc1ccc2nc(SCc3ccc(Br)cc3)[nH]c2c1	MY330/88	-	-	>32 µM
O=C(Nc1cccc(Br)c1)c1cc(Cl)ccc1OS(=O)(=O)c1ccccc1	330/88	-	14 d	16 µM
Cc1ccc2nc(SCc3cccc([N+](=O)[O-])c3)[nH]c2c1	MY330/88	-	-	32 µM
O=C(Nc1cccc(C(F)(F)F)c1)c1cc(Cl)ccc1OS(=O)(=O)c1ccccc1	330/88	-	21 d	62.5 µM
O=C(c1ccncc1)N(/N=C/c1ccc(Cl)cc1Cl)C(=O)c1cnccn1	ATCC49601	-	-	>16 µg/mL
N/C(=N\NC(CC(=O)c1ccc(Cl)c(Cl)c1)c1cccnc1)c1ccccn1	485	-	-	80 µg/mL
COc1ccc(/C=N/N(C(=O)c2ccncc2)C(=O)c2cnccn2)cc1	ATCC49601	-	-	>16 µg/mL
N/C(=N/N=C/c1cccc(Br)c1)c1ccccn1	-	-	-	16 µg/mL
O=C(c1ccncc1)N(/N=C/c1ccc(Cl)cc1)C(=O)c1cnccn1	ATCC49601	-	-	>16 µg/mL
Cc1ccc(C(=O)NCc2ccccn2)c(O)c1	ATCC 25291	-	21 d	500 µM
O=C(Nc1cccc(Cl)c1)c1cc(Cl)ccc1OS(=O)(=O)c1ccccc1	330/88	-	21 d	32 µM
N/C(=N\N=C\c1ccc(Cl)c(Cl)c1)c1ccccn1	-	-	-	256 µg/mL
COc1cccc(CSc2nc3ccc(C)cc3[nH]2)c1	MY330/88	-	-	62 µM
O=C(NCc1ccccn1)c1cc(Br)ccc1O	ATCC 25291	-	14 d	250 µM
Cc1ccc2oc(=O)n(-c3ccc(Br)cc3)c(=S)c2c1	MY330/88	-	14 d	4 µM
O=[N+]([O-])c1ccc(Sc2nc3c(Cl)cc(Cl)cc3[nH]2)c([N+](=O)[O-])c1	MY330/88	-	-	62.5 µM
N/C(=N/N=C/c1ccccc1Cl)c1ccccn1	-	-	-	16 µg/mL
O=[N+]([O-])c1ccc(Sc2nc3c(Br)c(Br)c(Br)c(Br)c3[nH]2)c([N+](=O)[O-])c1	MY330/88	-	-	125 µM
Cc1ccc(C(=O)CC(N/N=C(\N)c2ccccn2)c2cccnc2)cc1	485	-	-	16 µg/mL
CCCCCCCCOc1cccc(NC(=O)OCCN(C)C)c1	MY330/88	-	-	16 µM
NC(=S)N=Nc1c(S)n(-c2ccccc2)c2ccccc12	CNCTC MY80/72	-	-	63 µM
N/C(=N/N=C/c1ccccc1Br)c1ccccn1	-	-	-	64 µg/mL
COc1cccc(C(=O)NCc2ccccn2)c1O	ATCC 25291	-	21 d	1000 µM
COc1ccc2oc(=O)n(-c3ccc(C)cc3)c(=S)c2c1	MY330/88	-	14 d	32 µM
O=C(c1ccncc1)N(/N=C/c1cccc([N+](=O)[O-])c1)C(=O)c1cnccn1	ATCC49601	-	-	>16 µg/mL
Fc1cccc(-n2c(=S)oc3ccc(Br)cc3c2=S)c1	MY330/88	-	21 d	32 µM
O=C(NCc1ccccn1)c1cc(F)ccc1O	ATCC 25291	-	21 d	1000 µM
CC[C@H]1OC(=O)[C@H](C)C(=O)[C@H](C)[C@@H](O[C@@H]2O[C@H](C)C[C@H](N(C)C)[C@H]2O)[C@](C)(OC)C[C@@H](C)C(=O)[C@H](C)[C@H]2N(CCCCn3cnc(-c4cccnc4)c3)C(=O)O[C@]12C	Isolate 711	-	-	10 µg/mL
Cc1ccc2nc(SCc3ccccc3[N+](=O)[O-])[nH]c2c1	MY330/88	-	-	62 µM
Cc1ccccc1/C=C/C1=NN(C(=N)N)C(c2ccccc2C)C1	-	resazurin	-	1.96 µM
N/C(=N\N=C\c1ccc(Cl)c([N+](=O)[O-])c1)c1ccccn1	-	-	-	>256 µg/mL
COc1ccc2oc(=S)n(-c3ccc(Cl)cc3)c(=S)c2c1	MY330/88	-	14 d	62.5 µM
O=[N+]([O-])c1cc(Sc2nc3c(Br)cc(Br)cc3[nH]2)cc([N+](=O)[O-])c1	MY330/88	-	-	62.5 µM
COc1cccc(C(=O)NCc2cccnc2)c1O	ATCC 25291	-	14 d	1000 µM
COc1ccc(/C=C/C2=NN(C(=N)N)C(c3ccc(OC)cc3)C2)cc1	-	resazurin	-	1.78 µM
CCCCCOc1ccccc1NC(=O)OCCN1CCCCCC1	MY330/88	-	-	32 µM
CCn1c(S)c(N=NC(N)=O)c2ccccc21	CNCTC MY66/72	-	-	63 µM
CCCOc1cccc(NC(=O)OCCN(C)C)c1	MY330/88	-	-	1000 µM
Cn1cnnc1SCc1ccc(Cl)cc1	MY330/88	-	-	1000 µM
Cc1ccc(C(=O)CC(N/N=C(\N)c2ccccn2)c2ccccn2)cc1	485	-	-	80 µg/mL
O=[N+]([O-])c1ccccc1CSc1ncn[nH]1	MY330/88	-	-	500 µM
Cc1cccc(C(=O)CC(N/N=C(\N)c2ccccn2)c2ccncc2)c1	485	-	-	16 µg/mL
Cc1cccc(CSc2nc3ccc(C)cc3[nH]2)c1	MY330/88	-	-	62 µM
CN1C(=S)C(=O)c2ccccc21	CNCTC D5/93	-	-	63 µM
NC(=S)c1cccc(CSc2ncn[nH]2)c1	MY330/88	-	-	500 µM
O=c1oc2ccc(F)cc2c(=S)n1-c1ccc(F)cc1	MY330/88	-	21 d	16 µM
Cc1cccc(C(=O)NCc2ccccn2)c1O	ATCC 25291	-	14 d	125 µM
FC(F)(F)c1ccc(CSc2ncn[nH]2)cc1	MY330/88	-	-	250 µM
Cc1ccc2nc(SCc3cc(C(F)(F)F)cc(C(F)(F)F)c3)[nH]c2c1	MY330/88	-	-	62 µM
N/C(=N\NC(CC(=O)c1cccc(Cl)c1)c1ccccn1)c1ccccn1	485	-	-	80 µg/mL
O=C(c1ccncc1)N(/N=C/c1cccc(Oc2ccccc2)c1)C(=O)c1cnccn1	ATCC49601	-	-	>16 µg/mL

The last 4 rows once more:

smiles | strain or isolate | method | setting | value
FC(F)(F)c1ccc(CSc2ncn[nH]2)cc1 | MY330/88 | - | - | 250 µM
Cc1ccc2nc(SCc3cc(C(F)(F)F)cc(C(F)(F)F)c3)[nH]c2c1 | MY330/88 | - | - | 62 µM
N/C(=N\NC(CC(=O)c1cccc(Cl)c1)c1ccccn1)c1ccccn1 | 485 | - | - | 80 µg/mL
O=C(c1ccncc1)N(/N=C/c1cccc(Oc2ccccc2)c1)C(=O)c1cnccn1 | ATCC49601 | - | - | >16 µg/mL

Blank or dashed fields: not listed here.